## HIV-1 NL4-3 point mutations in p6*: replication capacity

Source: Al-Mawsawi et al. 2014 (doi:10.1186/s12977-014-0124-6), supplementary data.

Protein: p6* of HIV-1 NL4-3, numbered from its first residue. This is p6* (p6pol) in the Gag-Pol frame, not Gag p6; residue 1 starts at base 2109, after the 8-residue transframe peptide. The source prints no sequence; the chain below is taken from UniProt P12497, a closely related isolate, and fits the source at the 45 positions it covers.
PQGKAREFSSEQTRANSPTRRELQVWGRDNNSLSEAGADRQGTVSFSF
The overlapping Gag p6 frame may change too; the source does not say.
"Other frame" gives the effect on an overlapping gene as the source lists it; other overlaps (genes, RNA elements) are not shown.

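Random point mutant libraries of HIV-1 NL4-3, one for each of seven fragments, were passaged in CEM T lymphocytes. Sequencing gave the RC index: frequency after two rounds over frequency in the input plasmid.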

A higher RC index is a better tolerated change; approximate classes are lethal up to 0.1, attenuated to 0.2, tolerated above. A change reads original residue, position, new residue. Input reads are the counts in the plasmid library. Clones carried about five changes per kilobase, which can drag down the index of neutral changes.

With V44E (base T2239A, input reads 262) the assay gave 0.0216.
With S17G (base A2157G, input reads 341) the assay gave 0.249.
With F48S (base T2251C, input reads 407) the assay gave 0.0557.
With S34P (base T2208C, input reads 517) the assay gave 0.0730.
With Q41E (base C2229G, input reads 57) the assay gave 0.0663.
With E11D (base G2141C, input reads 102) the assay gave 0.104.
With N16D (base A2154G, input reads 445) the assay gave 0.162.
With S17N (base G2158A, input reads 340) the assay gave 0.199.
With V25L (base G2181C, input reads 147) the assay gave 0.0385.
With S17I (base G2158T, input reads 227) the assay gave 0.0560.
With R21I (base G2170T, input reads 230) the assay gave 0.140.
With K4T (base A2119C, other frame Gag silent, input reads 169) the assay gave 0.0502.
With G42R (base G2232A, input reads 118) the assay gave 0.800.
With F46I (base T2244A, input reads 468) the assay gave 0.0323.
With R28S (base A2192C, input reads 43) the assay gave 0.132.
With E35K (base G2211A, input reads 131) the assay gave 0.793.
With L33R (base T2206G, input reads 110) the assay gave 0.0858.
With N16S (base A2155G, input reads 440) the assay gave 0.120.
With E35V (base A2212T, input reads 413) the assay gave 0.0411.
With S9P (base T2133C, other frame Gag silent, input reads 407) the assay gave 0.0989.
With R6G (base A2124G, other frame Gag silent, input reads 705) the assay gave 0.0812.
With T43A (base A2235G, input reads 409) the assay gave 0.0415.
With W26R (base T2184C, input reads 472) the assay gave 0.0400.
With S47G (base A2247G, input reads 308) the assay gave 0.0674.
With G27E (base G2188A, input reads 178) the assay gave 0.435.
With G37V (base G2218T, input reads 82) the assay gave 0.0230.
With S17R (base A2157C, input reads 187) the assay gave 0.113.
With L33H (base T2206A, input reads 433) the assay gave 0.0218.
With D29G (base A2194G, input reads 294) the assay gave 0.0514.
With V25I (base G2181A, input reads 150) the assay gave 0.290.
With R21K (base G2170A, input reads 143) the assay gave 0.568.
With Q12P (base A2143C, input reads 79) the assay gave 0.0268.
With S34L (base C2209T, input reads 190) the assay gave 0.149.
With F8L (base T2130C, other frame Gag silent, input reads 112) the assay gave 0.132.
With R14G (base A2148G, input reads 550) the assay gave 0.0848.

An index over 1, which the authors read as above wild type, was rare (1.9% of all changes in the genome). Base changes are numbered along pNL4-3.